Assay: Selectivity index, CC50 for human Hep2 cells to IC50 for RSV Long
Format: functional, HEp-2
In short: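 SI = CC50/IC50. CC50 came from an MTT assay: confluent monolayers were exposed in triplicate to sample dilutions for 3 days, then MTT was added for 3 h, formazan was dissolved in DMSO, and OD was read at 540/690 nm. CC50 is the concentration cutting viable cells to 50% of control. IC50 came from the CPE reduction assay in the matching cell line.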

SMILES: NC(=O)c1ncn([C@@H]2O[C@H](CO)[C@@H](O)[C@H]2O)n1 [RIBAVIRIN]
- Ratio CC50/IC50: 20.8
